By UniProt entry, the sequences of proteins in these tests, tags left out. Residues count along the entry.
UniProt P04757, 26-499 limits assumed: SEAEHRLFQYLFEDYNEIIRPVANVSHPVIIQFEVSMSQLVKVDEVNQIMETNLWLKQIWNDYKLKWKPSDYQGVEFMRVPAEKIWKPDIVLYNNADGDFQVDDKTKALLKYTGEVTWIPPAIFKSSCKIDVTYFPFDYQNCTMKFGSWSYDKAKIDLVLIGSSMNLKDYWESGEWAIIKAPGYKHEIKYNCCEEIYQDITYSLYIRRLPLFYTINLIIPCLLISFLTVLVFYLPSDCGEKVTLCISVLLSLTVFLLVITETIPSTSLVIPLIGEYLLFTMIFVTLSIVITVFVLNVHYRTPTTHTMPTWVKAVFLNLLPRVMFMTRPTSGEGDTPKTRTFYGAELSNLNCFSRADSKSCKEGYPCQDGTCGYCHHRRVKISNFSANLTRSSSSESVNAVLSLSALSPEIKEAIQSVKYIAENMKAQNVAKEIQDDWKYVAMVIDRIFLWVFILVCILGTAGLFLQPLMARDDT
UniProt P12390, 25-500 limits assumed: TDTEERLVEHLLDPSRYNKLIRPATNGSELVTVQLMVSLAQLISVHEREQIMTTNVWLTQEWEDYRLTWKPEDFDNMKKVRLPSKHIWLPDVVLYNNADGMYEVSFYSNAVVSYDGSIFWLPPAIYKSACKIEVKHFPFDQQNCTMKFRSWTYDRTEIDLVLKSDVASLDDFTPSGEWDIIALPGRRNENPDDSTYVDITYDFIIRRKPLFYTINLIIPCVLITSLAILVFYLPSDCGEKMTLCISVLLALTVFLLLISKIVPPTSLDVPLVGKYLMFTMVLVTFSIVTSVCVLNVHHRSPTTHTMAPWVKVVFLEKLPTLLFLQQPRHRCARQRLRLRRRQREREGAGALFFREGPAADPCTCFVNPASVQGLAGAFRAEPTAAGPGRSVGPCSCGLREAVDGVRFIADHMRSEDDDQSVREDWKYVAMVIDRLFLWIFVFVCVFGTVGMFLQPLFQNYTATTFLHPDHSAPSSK
UniProt P12391, 31-464 limits assumed: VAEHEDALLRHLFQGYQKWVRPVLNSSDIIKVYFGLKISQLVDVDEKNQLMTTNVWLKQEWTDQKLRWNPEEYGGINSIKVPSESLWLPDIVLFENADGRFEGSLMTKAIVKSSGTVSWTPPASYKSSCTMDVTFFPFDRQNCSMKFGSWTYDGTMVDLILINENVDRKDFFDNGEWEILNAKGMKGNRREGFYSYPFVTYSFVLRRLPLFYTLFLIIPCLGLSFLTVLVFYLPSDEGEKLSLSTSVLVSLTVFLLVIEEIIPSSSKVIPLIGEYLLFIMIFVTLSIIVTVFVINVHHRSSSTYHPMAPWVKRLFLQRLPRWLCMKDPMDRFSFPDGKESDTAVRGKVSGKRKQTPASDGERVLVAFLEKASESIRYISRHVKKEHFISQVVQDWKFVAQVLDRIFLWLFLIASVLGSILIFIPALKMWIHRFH
UniProt P43143, 31-493 limits assumed: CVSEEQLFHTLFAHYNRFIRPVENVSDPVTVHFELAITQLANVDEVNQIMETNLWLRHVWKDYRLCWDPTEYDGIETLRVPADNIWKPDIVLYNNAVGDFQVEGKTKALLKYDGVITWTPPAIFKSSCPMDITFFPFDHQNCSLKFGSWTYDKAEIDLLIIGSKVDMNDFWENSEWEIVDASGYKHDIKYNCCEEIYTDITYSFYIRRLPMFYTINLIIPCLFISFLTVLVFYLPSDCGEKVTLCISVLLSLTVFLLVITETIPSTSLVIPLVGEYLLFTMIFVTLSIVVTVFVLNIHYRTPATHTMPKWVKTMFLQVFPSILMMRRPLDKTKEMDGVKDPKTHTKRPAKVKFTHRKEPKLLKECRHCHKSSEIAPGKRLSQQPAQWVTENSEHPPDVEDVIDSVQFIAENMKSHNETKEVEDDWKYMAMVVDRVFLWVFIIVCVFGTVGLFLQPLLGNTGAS
UniProt Q05941, 23-502 limits assumed: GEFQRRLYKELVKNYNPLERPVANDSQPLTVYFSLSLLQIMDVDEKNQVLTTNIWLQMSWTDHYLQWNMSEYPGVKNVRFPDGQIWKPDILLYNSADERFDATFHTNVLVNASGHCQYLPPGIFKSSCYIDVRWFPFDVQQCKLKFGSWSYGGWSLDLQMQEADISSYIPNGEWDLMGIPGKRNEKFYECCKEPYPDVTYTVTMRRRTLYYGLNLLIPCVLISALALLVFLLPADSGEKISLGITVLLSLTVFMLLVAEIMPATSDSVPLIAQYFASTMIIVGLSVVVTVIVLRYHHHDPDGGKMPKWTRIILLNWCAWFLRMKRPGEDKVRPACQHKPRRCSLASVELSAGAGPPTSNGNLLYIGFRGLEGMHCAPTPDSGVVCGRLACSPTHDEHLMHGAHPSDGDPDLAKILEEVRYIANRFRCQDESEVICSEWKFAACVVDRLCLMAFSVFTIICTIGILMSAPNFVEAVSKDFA
UniProt P12392, 21-495 limits assumed: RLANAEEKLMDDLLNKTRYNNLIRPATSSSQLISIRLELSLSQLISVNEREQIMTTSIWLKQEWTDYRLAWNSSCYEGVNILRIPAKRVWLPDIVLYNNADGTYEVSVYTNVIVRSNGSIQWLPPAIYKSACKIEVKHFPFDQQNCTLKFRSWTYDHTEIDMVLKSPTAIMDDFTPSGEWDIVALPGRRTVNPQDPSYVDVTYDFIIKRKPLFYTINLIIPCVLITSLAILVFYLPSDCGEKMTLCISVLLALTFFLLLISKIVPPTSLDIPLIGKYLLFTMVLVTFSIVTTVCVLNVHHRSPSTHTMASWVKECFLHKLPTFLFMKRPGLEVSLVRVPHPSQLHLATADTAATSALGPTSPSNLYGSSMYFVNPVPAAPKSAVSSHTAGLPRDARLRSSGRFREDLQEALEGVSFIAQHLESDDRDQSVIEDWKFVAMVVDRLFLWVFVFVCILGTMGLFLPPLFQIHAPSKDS
UniProt P09483, 31-630 limits assumed: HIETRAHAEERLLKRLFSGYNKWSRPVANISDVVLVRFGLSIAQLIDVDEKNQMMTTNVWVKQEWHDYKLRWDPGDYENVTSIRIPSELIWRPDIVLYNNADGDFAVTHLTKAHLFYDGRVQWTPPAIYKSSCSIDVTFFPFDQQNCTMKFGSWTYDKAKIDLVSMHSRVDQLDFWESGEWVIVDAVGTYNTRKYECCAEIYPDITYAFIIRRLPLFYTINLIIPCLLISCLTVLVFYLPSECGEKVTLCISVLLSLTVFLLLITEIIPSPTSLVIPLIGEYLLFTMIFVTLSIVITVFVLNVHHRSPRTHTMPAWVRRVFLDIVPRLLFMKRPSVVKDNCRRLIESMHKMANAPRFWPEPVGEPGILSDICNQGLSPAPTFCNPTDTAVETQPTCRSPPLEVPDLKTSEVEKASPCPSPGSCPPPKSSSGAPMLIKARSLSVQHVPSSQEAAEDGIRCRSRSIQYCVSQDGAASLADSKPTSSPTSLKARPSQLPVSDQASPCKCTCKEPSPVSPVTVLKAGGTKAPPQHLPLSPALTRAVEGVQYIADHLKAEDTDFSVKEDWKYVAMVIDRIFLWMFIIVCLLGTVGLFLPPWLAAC
UniProt P43144, 26-479 limits assumed: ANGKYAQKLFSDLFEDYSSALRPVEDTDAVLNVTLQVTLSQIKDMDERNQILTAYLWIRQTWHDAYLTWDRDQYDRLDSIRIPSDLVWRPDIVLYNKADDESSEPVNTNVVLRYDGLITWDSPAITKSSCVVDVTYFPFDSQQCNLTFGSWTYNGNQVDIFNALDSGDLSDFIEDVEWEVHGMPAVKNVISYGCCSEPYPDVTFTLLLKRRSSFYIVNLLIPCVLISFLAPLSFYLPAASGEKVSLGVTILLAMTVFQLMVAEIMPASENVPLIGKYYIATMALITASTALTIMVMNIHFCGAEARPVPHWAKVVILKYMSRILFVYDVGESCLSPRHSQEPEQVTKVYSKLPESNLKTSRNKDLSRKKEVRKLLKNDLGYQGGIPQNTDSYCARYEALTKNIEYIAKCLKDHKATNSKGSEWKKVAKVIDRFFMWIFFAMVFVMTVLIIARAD
UniProt Q9JLB5, 25-447 limits assumed: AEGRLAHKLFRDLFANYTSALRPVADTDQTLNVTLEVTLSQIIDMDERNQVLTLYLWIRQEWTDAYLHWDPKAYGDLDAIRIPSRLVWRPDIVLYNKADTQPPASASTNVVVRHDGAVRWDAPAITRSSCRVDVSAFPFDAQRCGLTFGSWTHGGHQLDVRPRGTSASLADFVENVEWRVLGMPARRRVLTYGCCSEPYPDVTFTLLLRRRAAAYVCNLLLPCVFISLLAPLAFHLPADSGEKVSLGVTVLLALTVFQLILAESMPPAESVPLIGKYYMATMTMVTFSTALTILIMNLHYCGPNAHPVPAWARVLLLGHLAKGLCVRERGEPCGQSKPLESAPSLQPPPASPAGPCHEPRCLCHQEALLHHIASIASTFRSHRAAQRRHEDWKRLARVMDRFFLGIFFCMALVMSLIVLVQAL

According to ChEMBL document CHEMBL4364262 (J Med Chem, 2019):

Key:
[1] = target: T1, Nicotinic acetylcholine receptor alpha6/alpha3/beta2/beta3 (Rattus norvegicus, UniProt P04757+P12390+P12391+P43143)
[2] = target: T2, Neuronal acetylcholine receptor; alpha3/beta2 (Rattus norvegicus, UniProt P04757+P12390)
[3] = target: T2, Neuronal acetylcholine receptor; alpha3/beta2; remark: listed apart in the source
[4] = target: T1, Nicotinic acetylcholine receptor alpha6/alpha3/beta2/beta3; remark: listed apart in the source
[5] = target: Neuronal acetylcholine receptor subunit alpha-7 (Rattus norvegicus, UniProt Q05941)
[6] = target: Neuronal acetylcholine receptor; alpha3/beta4 (Rattus norvegicus, UniProt P04757+P12392)
[7] = target: Neuronal acetylcholine receptor; alpha4/beta2 (Rattus norvegicus, UniProt P09483+P12390)
[8] = target: Nicotinic acetylcholine receptor alpha9/alpha10 (Rattus norvegicus, UniProt P43144+Q9JLB5)

## CC[C@H](C)[C@@H]1NC(=O)[C@H](Cc2cnc[nH]2)NC(=O)[C@@H]2CSSC[C@H](NC(=O)CN)C(=O)N[C@@H](CSSC[C@@H](C(N)=O)NC(=O)[C@H](CC(C)C)NC(=O)[C@H](CCC(=O)O)NC(=O)[C@@H]3CCCN3C(=O)[C@H](Cc3cnc[nH]3)NC(=O)[C@H](CC(=O)O)NC1=O)C(=O)N[C@@H](CO)C(=O)N[C@@H](Cc1cnc[nH]1)C(=O)N1CCC[C@H]1C(=O)N[C@@H](C)C(=O)N2
[1]
  IC50: 19.9 nM

## CCCC[C@@H]1NC(=O)[C@H](CCC(=O)O)NC(=O)[C@@H]2CCCN2C(=O)[C@H](Cc2cnc[nH]2)NC(=O)[C@H](CC(N)=O)NC(=O)[C@H](C(C)C)NC(=O)[C@H](CO)NC(=O)[C@@H]2CSSC[C@H](NC(=O)CN)C(=O)N[C@@H](CSSC[C@@H](C(N)=O)NC1=O)C(=O)N[C@@H](CO)C(=O)N[C@@H](Cc1cnc[nH]1)C(=O)N1CCC[C@H]1C(=O)N[C@@H](C)C(=O)N2
[2]
  IC50: 21.1 nM
[1]
  IC50: 13.2 nM

## CC(C)C[C@@H]1NC(=O)[C@H](CCCNC(=N)N)NC(=O)[C@@H]2CCCN2C(=O)[C@H](Cc2cnc[nH]2)NC(=O)[C@H](CC(N)=O)NC(=O)[C@H](C(C)C)NC(=O)[C@H](CO)NC(=O)[C@@H]2CSSC[C@H](NC(=O)CN)C(=O)N[C@@H](CSSC[C@@H](C(N)=O)NC1=O)C(=O)N[C@@H](CO)C(=O)N[C@@H](Cc1cnc[nH]1)C(=O)N1CCC[C@H]1C(=O)N[C@@H](C)C(=O)N2
[2]
  IC50: 109 nM
[1]
  IC50: 7.4 nM

## CC[C@H](C)[C@@H]1NC(=O)CNC(=O)[C@H](C)NC(=O)[C@@H]2CSSC[C@H](NC(=O)CN)C(=O)N[C@@H](CSSC[C@@H](C(N)=O)NC(=O)[C@H](CC(C)C)NC(=O)[C@H](CCC(=O)O)NC(=O)[C@H](CCC(=O)O)NC(=O)[C@H](Cc3cnc[nH]3)NC1=O)C(=O)N[C@@H](C)C(=O)N[C@@H](CCCNC(=N)N)C(=O)N[C@@H](C)C(=O)N[C@@H](C)C(=O)N2
[3]
  IC50: 9.8 nM
[4]
  IC50: 84.4 nM

## CC[C@H](C)[C@@H]1NC(=O)[C@H](Cc2cnc[nH]2)NC(=O)[C@@H]2CSSC[C@H](NC(=O)CN)C(=O)N[C@@H](CSSC[C@@H](C(N)=O)NC(=O)[C@H](CC(C)C)NC(=O)[C@H](CCC(=O)O)NC(=O)[C@@H]3CCCN3C(=O)[C@H](Cc3cnc[nH]3)NC(=O)[C@H](CCCCCC(=O)O)NC1=O)C(=O)N[C@@H](CO)C(=O)N[C@@H](Cc1cnc[nH]1)C(=O)N1CCC[C@H]1C(=O)N[C@@H](C)C(=O)N2
[1]
  IC50: 50.3 nM

## CC(C)C[C@@H]1NC(=O)[C@H](CO)NC(=O)[C@@H]2CSSC[C@@H](C(N)=O)NC(=O)[C@H](Cc3ccc(O)cc3)NC(=O)[C@H](CC(=O)O)NC(=O)[C@@H]3CCCN3C(=O)[C@H](CC(N)=O)NC(=O)[C@H](CC(N)=O)NC(=O)[C@H](C)NC(=O)[C@H](C)NC(=O)[C@H](CSSC[C@H](NC(=O)CN)C(=O)N2)NC(=O)[C@@H]2CCCN2C(=O)[C@@H]2CCCN2C1=O
[3]
  IC50: 7.7 nM
[4]
  IC50: 10.9 nM

## CC[C@H](C)[C@@H]1NC(=O)[C@H](Cc2cnc[nH]2)NC(=O)[C@@H]2CSSC[C@H](NC(=O)CN)C(=O)N[C@@H](CSSC[C@@H](C(N)=O)NC(=O)[C@H](CC(C)C)NC(=O)[C@H](CCC(=O)O)NC(=O)[C@@H]3CCCN3C(=O)[C@H](Cc3cnc[nH]3)NC(=O)[C@H](CCC(=O)O)NC1=O)C(=O)N[C@@H](CO)C(=O)N[C@@H](Cc1cnc[nH]1)C(=O)N1CCC[C@H]1C(=O)N[C@@H](C)C(=O)N2
[1]
  IC50: 16.2 nM

## CCCC[C@@H]1NC(=O)[C@H](Cc2cnc[nH]2)NC(=O)[C@@H]2CSSC[C@H](NC(=O)CN)C(=O)N[C@@H](CSSC[C@@H](C(N)=O)NC(=O)[C@H]([C@@H](C)CC)NC(=O)[C@H](CCC(=O)O)NC(=O)[C@@H]3CCCN3C(=O)[C@H](Cc3cnc[nH]3)NC(=O)[C@H](CCCCC(=O)O)NC1=O)C(=O)N[C@@H](CO)C(=O)N[C@@H](Cc1cnc[nH]1)C(=O)N1CCC[C@H]1C(=O)N[C@@H](C)C(=O)N2
[5]
  IC50: 15 nM
[6]
  IC50: 380 nM
[7]
  IC50: 2070 nM

## CC(C)C[C@@H]1NC(=O)[C@H](CCCC(=O)O)NC(=O)[C@@H]2CCCN2C(=O)[C@H](Cc2cnc[nH]2)NC(=O)[C@H](CC(N)=O)NC(=O)[C@H](C(C)C)NC(=O)[C@H](CO)NC(=O)[C@@H]2CSSC[C@H](NC(=O)CN)C(=O)N[C@@H](CSSC[C@@H](C(N)=O)NC1=O)C(=O)N[C@@H](CO)C(=O)N[C@@H](Cc1cnc[nH]1)C(=O)N1CCC[C@H]1C(=O)N[C@@H](C)C(=O)N2
[2]
  IC50: 115 nM
[1]
  IC50: 29.2 nM

## CC[C@H](C)[C@@H]1NC(=O)[C@H](Cc2cnc[nH]2)NC(=O)[C@@H]2CCCN2C(=O)[C@H](CC(N)=O)NC(=O)[C@H](CC(N)=O)NC(=O)[C@H](C(C)C)NC(=O)[C@H](CC(N)=O)NC(=O)[C@@H]2CSSC[C@H](NC(=O)CN)C(=O)N[C@@H](CSSC[C@@H](C(=O)NCC(N)=O)NC1=O)C(=O)N[C@@H](CO)C(=O)N[C@@H](Cc1cnc[nH]1)C(=O)N1CCC[C@H]1C(=O)N[C@@H](C)C(=O)N2
[2]
  IC50: 11 nM
[1]
  IC50: 201 nM

## CCCC[C@@H]1NC(=O)[C@H](Cc2cnc[nH]2)NC(=O)[C@@H]2CSSC[C@H](NC(=O)CN)C(=O)N[C@@H](CSSC[C@@H](C(N)=O)NC(=O)[C@H](CC(C)C)NC(=O)[C@H](CCC(=O)O)NC(=O)[C@@H]3CCCN3C(=O)[C@H](Cc3cnc[nH]3)NC(=O)[C@H](CCCCC(=O)O)NC1=O)C(=O)N[C@@H](CO)C(=O)N[C@@H](Cc1cnc[nH]1)C(=O)N1CCC[C@H]1C(=O)N[C@@H](C)C(=O)N2
[5]
  IC50: 18.7 nM
[6]
  IC50: 168 nM
[7]
  IC50: 1930 nM

## CC[C@H](C)[C@@H]1NC(=O)[C@H](Cc2cnc[nH]2)NC(=O)[C@@H]2CSSC[C@H](NC(=O)CN)C(=O)N[C@@H](CSSC[C@@H](C(N)=O)NC(=O)[C@H](CC(C)C)NC(=O)[C@H](CCC(=O)O)NC(=O)[C@@H]3CCCN3C(=O)[C@H](Cc3cnc[nH]3)NC(=O)[C@H](CC(N)=O)NC1=O)C(=O)N[C@@H](CO)C(=O)N[C@@H](Cc1cnc[nH]1)C(=O)N1CCC[C@H]1C(=O)N[C@@H](C)C(=O)N2
[1]
  IC50: 1.04 nM

## CC(C)C[C@@H]1NC(=O)[C@H](CCC(=O)O)NC(=O)[C@@H]2CCCN2C(=O)[C@H](Cc2cnc[nH]2)NC(=O)[C@H](CC(N)=O)NC(=O)[C@H](C(C)C)NC(=O)[C@H](CO)NC(=O)[C@@H]2CSSC[C@H](NC(=O)CN)C(=O)N[C@@H](CSSC[C@@H](C(N)=O)NC1=O)C(=O)N[C@@H](CO)C(=O)N[C@@H](Cc1cnc[nH]1)C(=O)N1CCC[C@H]1C(=O)N[C@@H](C)C(=O)N2
[8]
  IC50: 30 nM

## CC[C@H](C)[C@@H]1NC(=O)[C@H](Cc2cnc[nH]2)NC(=O)[C@@H]2CSSC[C@H](NC(=O)CN)C(=O)N[C@@H](CSSC[C@@H](C(N)=O)NC(=O)[C@H](CC(C)C)NC(=O)[C@H](CCC(=O)O)NC(=O)[C@@H]3CCCN3C(=O)[C@H](Cc3cnc[nH]3)NC(=O)[C@H](CCCC(=O)O)NC1=O)C(=O)N[C@@H](CO)C(=O)N[C@@H](Cc1cnc[nH]1)C(=O)N1CCC[C@H]1C(=O)N[C@@H](C)C(=O)N2
[1]
  IC50: 155 nM

## CC[C@H](C)[C@@H]1NC(=O)[C@H](CCC(=O)O)NC(=O)[C@@H]2CCCN2C(=O)[C@H](Cc2cnc[nH]2)NC(=O)[C@H](CC(N)=O)NC(=O)[C@H]([C@@H](C)CC)NC(=O)[C@H](Cc2cnc[nH]2)NC(=O)[C@@H]2CSSC[C@H](NC(=O)CN)C(=O)N[C@@H](CSSC[C@@H](C(N)=O)NC1=O)C(=O)N[C@@H](CO)C(=O)N[C@@H](Cc1cnc[nH]1)C(=O)N1CCC[C@H]1C(=O)N[C@@H](C)C(=O)N2
[1]
  IC50: 0.86 nM

## CC[C@H](C)[C@@H]1NC(=O)[C@H](Cc2cnc[nH]2)NC(=O)[C@@H]2CSSC[C@H](NC(=O)CN)C(=O)N[C@@H](CSSC[C@@H](C(N)=O)NC(=O)[C@H](CC(C)C)NC(=O)[C@H](CCC(=O)O)NC(=O)[C@@H]3CCCN3C(=O)[C@H](Cc3cnc[nH]3)NC(=O)[C@H](CCCCC(=O)O)NC1=O)C(=O)N[C@@H](CO)C(=O)N[C@@H](Cc1cnc[nH]1)C(=O)N1CCC[C@H]1C(=O)N[C@@H](C)C(=O)N2
[1]
  IC50: 22.3 nM

## CC(C)C[C@@H]1NC(=O)[C@H](CCC(N)=O)NC(=O)[C@@H]2CCCN2C(=O)[C@H](Cc2cnc[nH]2)NC(=O)[C@H](CC(N)=O)NC(=O)[C@H](C(C)C)NC(=O)[C@H](CO)NC(=O)[C@@H]2CSSC[C@H](NC(=O)CN)C(=O)N[C@@H](CSSC[C@@H](C(N)=O)NC1=O)C(=O)N[C@@H](CO)C(=O)N[C@@H](Cc1cnc[nH]1)C(=O)N1CCC[C@H]1C(=O)N[C@@H](C)C(=O)N2
[2]
  IC50: 77.1 nM

## CC[C@H](C)[C@@H]1NC(=O)[C@H](CCC(=O)O)NC(=O)[C@@H]2CCCN2C(=O)[C@H](Cc2cnc[nH]2)NC(=O)[C@H](CCCCC(=O)O)NC(=O)[C@H]([C@@H](C)CC)NC(=O)[C@H](Cc2cnc[nH]2)NC(=O)[C@@H]2CSSC[C@H](NC(=O)CN)C(=O)N[C@@H](CSSC[C@@H](C(N)=O)NC1=O)C(=O)N[C@@H](CO)C(=O)N[C@@H](Cc1cnc[nH]1)C(=O)N1CCC[C@H]1C(=O)N[C@@H](C)C(=O)N2
[1]
  IC50: 58.2 nM
